Experiments:
[1] = system: spheroplasts of Saccharomyces cerevisiae; test: Cell density (O.D.600) and substrate radioactivity recovered in spheroplasts incubated with inhibitor
Description: Total lipids were extracted and analyzed as described in Example 6.

[2] = system: whole cells of Saccharomyces cerevisiae; test: Cell density (O.D.600) and substrate radioactivity recovered in whole yeast incubated with inhibitor; assay type: cell-based

CCCOC(=O)c1cc(O)c(O)c(O)c1 [n-propyl gallate, 3,4,5-Trihydoxybenzoic acid propyl ester]
% radioactivity recovered ([1]; n-propyl gallate 0.25 mM, pTh5009.1, without inhibitor 9.0): 9.5% | % radioactivity recovered ([1]; n-propyl gallate 0.25 mM, pYr5014.1, without inhibitor 10.7): 9.0% | % radioactivity recovered ([1]; n-propyl gallate 0.50 mM, pTh5009.1): 9.5% | % radioactivity recovered ([1]; n-propyl gallate 1.00 mM, pTh5009.1): 9.8% | % radioactivity recovered ([1]; n-propyl gallate 1.00 mM, pYr5014.1): 8.3% | % radioactivity recovered ([1]; n-propyl gallate 2.00 mM, pTh5009.1): 9.3% | % radioactivity recovered ([1]; n-propyl gallate 2.00 mM, pYr5014.1): 8.6% | % radioactivity recovered ([1]; n-propyl gallate 4.00 mM, pTh5009.1): 8.9% | % radioactivity recovered ([1]; n-propyl gallate 4.00 mM, pYr5014.1): 7.6% | % radioactivity recovered ([1]; n-propyl gallate 8.00 mM, pTh5009.1): 4.9% | % radioactivity recovered ([1]; n-propyl gallate 8.00 mM, pYr5014.1): 3.6% | effect on uptake of substrate (radioactivity recovered in cells) ([1]; n-propyl gallate between 0.7-4.0 mM): not affecting the uptake of substrate | % radioactivity recovered ([2]; n-propyl gallate 1.7 mM, pTh5009.1, without inhibitor 0.5): 0.5% | % radioactivity recovered ([2]; n-propyl gallate 3.5 mM, pTh5009.1): 0.8% | % radioactivity recovered ([2]; n-propyl gallate 7.0 mM, pTh5009.1): 0.7% | % radioactivity recovered ([2]; n-propyl gallate 7.0 mM, pYr5014.1, without inhibitor 0.5): 0.9% | % radioactivity recovered ([2]; n-propyl gallate 14.0 mM, pYr5014.1): 0.6%

From patent US7256028B2, “Methods for screening compounds that modulate lipid metabolism” (Xenon Genetics Inc., priority 2000, dated 2007)
